A mixed list of measured activities; the numbers were collected in NIAID ChemDB.

Common to all: host cell toxicity; cell line: VERO; read-out: CC50

CCn is the concentration with n% toxicity to the cells. Conditions beyond the fields shown may differ between rows.

structure | value
CCN(CC)C(=O)C1CCCN(c2cc3c(cc2[N+](=O)[O-])c(=O)c(C(=O)O)cn3C2CC2)C1 | >146 µM
CCc1nc2ccc(Cl)cn2c1C(=O)NCc1ccc(N2CCCN(c3ccc(S(F)(F)(F)(F)F)cc3)CC2)c(F)c1 | >32 µM
Cc1cc(N/N=C/c2ccccc2)c2cc(C3CCCCC3)ccc2n1 | 64 µg/mL
O=c1[nH]c(=O)n([C@H]2C[C@H](O)[C@@H](CO)S2)cc1I | >100 µM
Cc1nc2ccc(Cl)cn2c1C(=O)NCc1ccc2c(c1)CCO2 | >32 µM
CCn1cc(C(=O)O)c(=O)c2cc(F)c(N3CCN(CN4C(=O)/C(=N\c5ncc(Cc6cc(OC)c(OC)c(OC)c6)c(N)n5)c5cc(Br)ccc54)C(C)C3)c(F)c21 | >10 µg/mL
CC(O)c1cn([C@H]2C[C@H](O)[C@@H](CO)S2)c(=O)[nH]c1=O | >500 µM
COc1cc(Cc2cnc(/N=C3\C(=O)N(CN4CCN(c5cc6c(cc5F)c(=O)c(C(=O)O)cn6C5CC5)CC4)c4ccc(Cl)cc43)nc2N)cc(OC)c1OC | >10 µg/mL
O=C(O[C@@H]1[C@@H]2C(=O)c3cc(O)c(O)c(O)c3-c3c(cc(O)c(O)c3O)C(=O)OC[C@H]2OC(O)[C@@H]1O)c1cc(O)c(O)c(O)c1 | 18.13 µg/mL
CCCCC[C@@]1(C(=O)CCC)CC[C@@]2(c3ccccc3)ON12 | >50 µg/mL
CCN(CC)C(=O)C1CCCN(c2cc3c(cc2[N+](=O)[O-])c(=O)c(C(=O)O)cn3-c2ccc(F)cc2F)C1 | 62.38 µM
COc1cccc2c1C(=O)c1c(O)c3c(c(O)c1C2=O)C[C@@](O)(C(C)=O)C[C@@H]3O[C@H]1C[C@H](N(C)C)[C@H](O)[C@H](C)O1 | 85 µM
COc1c(N2CCNC(C)C2)c(F)cc2c(=O)c(C(=O)O)cn(C3CC3)c12 | >155.3 µM
COc1ccc(/C=N/N=C(\N)NO)cc1.Cc1ccc(S(=O)(=O)O)cc1 | 25 µM
O=C(O)c1c(=O)c2cc([N+](=O)[O-])c(N3CCC(N4CCCCC4)CC3)nc2n2c1sc1ccccc12 | 123 µM
CCc1nc2ccc(Cl)cn2c1C(=O)NCc1ccc(N2CCS(=O)(=O)CC2)cc1 | >32 µM
COc1cc(Cc2cnc(/N=C3\C(=O)N(CN4CCN(c5c(F)cc6c(=O)c(C(=O)O)cn(C7CC7)c6c5OC)CC4C)c4ccc(C)cc43)nc2N)cc(OC)c1OC | >10 µg/mL
COc1ccc(C(F)(F)F)cc1NCc1cnc2nc(N)nc(N)c2c1C | 1.03 µg/mL
COc1cc(NS(C)(=O)=O)ccc1Nc1c2ccccc2nc2ccccc12 | 3 µM
COc1cc(Cc2cnc(/N=C3\C(=O)N(CN4CCN(c5c(F)cc6c(=O)c(C(=O)O)cn(C7CC7)c6c5OC)CC4C)c4ccc(Br)cc43)nc2N)cc(OC)c1OC | >10 µg/mL
COc1cc(OC)c(/C=N/N=C(/N)NO)c(OC)c1.Cc1ccc(S(=O)(=O)O)cc1 | 100 µM
CCCC[C@@]1(C(=O)CCC)CC[C@@]2(c3ccccc3)ON12 | <50 µg/mL
Cn1c2c(c(=O)n(C)c1=O)S[C@H]1[C@@H](O2)O[C@H](COc2ccccc2)[C@@H](OCc2ccccc2)[C@@H]1OCc1ccccc1 | >100 µM
Nc1nc2c(ncn2[C@@H]2O[C@H](CO)C[C@@H]2F)c(=O)[nH]1 | 39 µM
C/C=C/c1cn([C@H]2C[C@H](O)[C@@H](CO)S2)c(=O)[nH]c1=O | >100 µM
CC1(C)OC2C(O1)[C@@H](COS(=O)(=O)NC(=O)OC1CCCCC1)O[C@H]2n1ccc(=O)[nH]c1=O | 619 µg/mL
CCCCC[C@]1(C(=O)CCC)CC[C@@]2(c3ccccc3)ON12 | <50 µg/mL
COc1cc2c(cc1OC)CN(c1nc3c(cc1[N+](=O)[O-])c(=O)c(C(=O)O)cn3C1CC1)CC2 | >142.5 µM
Cc1cn2c(C(=O)NCc3ccc(N4CCS(=O)(=O)CC4)cc3)c(C)nc2s1 | >32 µM
COc1ccc(/C=N/Nc2cc(C)nc3ccc(C4CCCCC4)cc23)c2ccccc12 | 13.1 µg/mL
COc1cc(OC)cc(N(C)Cc2cnc3nc(N)nc(N)c3c2C)c1 | 222 µg/mL
CC1(C)OC2C(O1)[C@@H](COS(=O)(=O)NC(=O)OC(COCc1ccccc1)OCc1ccccc1)O[C@H]2n1ccc(=O)[nH]c1=O | 369 µg/mL
CCCCOc1ccc2nc(C)cc(N/N=C/c3ccc(OC)c4ccccc34)c2c1 | 5.2 µg/mL
CC(=O)O[C@H]1O[C@@H](SC2=N/C(=C\c3ccccc3)C(=O)N2c2ccccc2)[C@H](OC(C)=O)[C@@H](OC(C)=O)[C@@H]1OC(C)=O | >100 µM
O=c1[nH]c(=O)n([C@H]2C[C@H](O)[C@@H](CO)S2)cc1C(F)(F)F | 139 µM
Cc1ccc2[nH]c3cc(O)cc(O)c3c(=O)c2c1 | 60 µM
COc1cc(Cc2cnc(/N=C3\C(=O)N(CN4CCN(c5c(F)cc6c(=O)c(C(=O)O)cn(C7CC7)c6c5F)CC4C)c4ccc(F)cc43)nc2N)cc(OC)c1OC | >10 µg/mL
CCN(CC)c1ccc(/C=N/Nc2cc(C)nc3cc(Cl)ccc23)cc1 | 11.9 µg/mL
COc1cc(Cc2cnc(/N=C3\C(=O)N(CN4CCN(c5cc6c(cc5F)c(=O)c(C(=O)O)cn6C5CC5)CC4)c4ccc(C)cc43)nc2N)cc(OC)c1OC | >10 µg/mL
CC(C)(C)n1cc(C(=O)O)c(=O)c2cc(F)c(N3CCN(Cc4ccc5c(c4)OCO5)CC3)cc21 | 129.8 µM
COc1ccc(OC)c(NCc2cnc3nc(N)nc(N)c3c2C)c1 | 717 µg/mL
NC(=S)NC1N=C(c2ccccc2)SN1 | >200 µg/mL
CC(=O)O[C@H]1[C@@H](OC(C)=O)[C@@H](CO[Si](c2ccccc2)(c2ccccc2)C(C)(C)C)O[C@@H](O[C@H]2[C@H](OC(C)=O)[C@H]3Sc4c(n(C)c(=O)n(C)c4=O)O[C@H]3O[C@@H]2CO[Si](c2ccccc2)(c2ccccc2)C(C)(C)C)[C@@H]1OC(C)=O | >100 µM
Cc1c(CNc2cccc3c2CCCC3)cnc2nc(N)nc(N)c12 | 322 µg/mL
CCc1nc2ccc(Cl)cn2c1C(=O)NCc1ccc(N2CCC(c3ccc(OC(F)(F)F)cc3)CC2)cc1 | >32 µM
O=c1c2cc(Cl)ccc2[nH]c2cc(O)cc(O)c12 | 60 µM
Cn1c2c(c(=O)n(C)c1=O)S[C@@H]1[C@H](O2)O[C@H](COc2ccccc2)[C@@H](OCc2ccccc2)[C@@H]1OCc1ccccc1 | >100 µM
CN1CCN(c2cc3c(cc2F)c(=O)c(C(=O)O)cn3C2CC2)CC1c1ccccc1 | >148.3 µM
CC1(C)COCN1c1nc2c(cc1[N+](=O)[O-])c(=O)c(C(=O)O)c1sc3ccccc3n12 | >142 µM
CC(=O)c1cn([C@H]2C[C@H](O)[C@@H](CO)S2)c(=O)[nH]c1=O | 351 µM
Nc1ccn([C@@H]2O[C@@H](CO)[C@H](O)C2(F)F)c(=O)n1 | >100 µM
C=Cc1cn([C@H]2C[C@H](O)[C@@H](CO)S2)c(=O)[nH]c1=O | >500 µM
CCN(CC)C(=O)C1CCCN(c2nc3c(cc2[N+](=O)[O-])c(=O)c(C(=O)O)c2sc4ccccc4n23)C1 | 119 µM

Repeating the final 4 entries:

structure,value
CC(=O)c1cn([C@H]2C[C@H](O)[C@@H](CO)S2)c(=O)[nH]c1=O,351 µM
Nc1ccn([C@@H]2O[C@@H](CO)[C@H](O)C2(F)F)c(=O)n1,>100 µM
C=Cc1cn([C@H]2C[C@H](O)[C@@H](CO)S2)c(=O)[nH]c1=O,>500 µM
CCN(CC)C(=O)C1CCCN(c2nc3c(cc2[N+](=O)[O-])c(=O)c(C(=O)O)c2sc4ccccc4n23)C1,119 µM